Compound potency records, mixed from different reports. Data source: NIAID ChemDB in PubChem.

Shared fields: tests on isolated targets; agent: HIV-1; protein: Reverse transcriptase; method: nucleotide incorporation / radiometric; endpoint: IC50

a–b is a range or a potency band.

| smiles | changes | strain | value |
|---|---|---|---|
| CCN1c2ncccc2C(=O)N(C)c2ccc(-c3cc[nH]c3C(C)=O)nc21 | RT-Y188L |  | >1 µM |
| Cc1occc1C(=S)Nc1ccc(Cl)c(C(=O)OCC2CC2)c1 | RT-P236L |  | 12 µM |
| CCN1c2ncccc2C(=O)N(C)c2ccc(-c3cnn(C(C)=O)c3)nc21 |  | WT | <1 µM |
| N#Cc1cc(Cl)cc(Oc2cc(Cl)cc(OCC(=O)Nc3ccc4nc[nH]c4c3)c2)c1 |  |  | <20 µM |
| O=C(O)CCNC(=O)c1ccc(NC(=O)CSc2nnc(Br)n2-c2ccc(C3CC3)c3ccccc23)c(Cl)c1 | RT-Y188L |  | >0.1 µM |
| CCN1c2ncc(CCOc3ccc4cc(C(=O)NN)ccc4c3)cc2C(=O)N(C)c2cccnc21 | RT-Y188L |  | >1 µM |
| CCc1ccc(-n2c(Br)nnc2SCC(=O)Nc2ccc(C(=O)N3CCCCC3CO)cc2Cl)c2ccccc12 | RT-Y181C |  | <0.05 µM |
| C=CCO/N=C/c1cc(NC(=S)c2ccoc2C)ccc1Cl | RT-L108I |  | >50 µM |
| CCN1c2ncccc2C(=O)N(C)c2ccc(-c3cnn(CC)c3)nc21 |  | WT | <1 µM |
| Cc1ccc(-c2nnc(COc3ccc(Cl)c(Oc4cc(Cl)cc(C#N)c4)c3)o2)cc1 |  |  | <20 µM |
| Cc1cc(S(N)(=O)=O)ccc1NC(=O)CSc1nnc(C(F)F)n1-c1ccc(C)c2c1CCCC2 | RT-Y188L |  | >0.1 µM |
| Nc1ncnc2c1ncn2[C@H]1CC[C@@H](COP(=O)(O)OP(=O)(O)OP(=O)(O)O)O1 | RT-A62V V75I F77L F116Y Q151M |  | 38 µM |
| Cc1cc(S(N)(=O)=O)ccc1NC(=O)CSc1nnc(CF)n1-c1ccc(C)c2c1CCCC2 | RT-Y188L |  | >0.1 µM |
| Cn1c(COc2ccc(Cl)c(Oc3cc(Cl)cc(C#N)c3)c2)nc2ccccc21 |  |  | <20 µM |
| CCN1c2ncccc2C(=O)N(C)c2ccc(-c3cccn3C)nc21 | RT-Y181C |  | <1 µM |
| N#Cc1cc(Cl)cc(Oc2cc(OCc3[nH]nc4nc(N5CC(CN)C5)ccc34)ccc2Cl)c1 |  |  | <20 µM |
| CCCc1ccc(-n2c(Br)nnc2SCC(=O)Nc2ccc(S(N)(=O)=O)cc2C)c2ccccc12 | RT-Y188L |  | >0.1 µM |
| CCN1C(=O)c2cccnc2N(C)c2nc(-c3ccc[nH]3)ccc21 | RT-Y188L |  | >1 µM |
| NS(=O)(=O)c1ccc(NC(=O)CSc2nnc(C(F)F)n2-c2ccc(C3CC3)c3ccccc23)c(Cl)c1 | RT-Y188L |  | >0.1 µM |
| CCN1c2ncc(CCOc3ccc(C(=O)O)c4c3CCN(C(=O)OC(C)(C)C)C4)cc2C(=O)N(C)c2cccnc21 |  | WT | <0.1 µM |
| CCc1ccc(-n2c(Br)nnc2SCC(=O)Nc2ccc(C(=O)N[C@H](C(=O)OC)C(C)C)cc2Cl)c2ccccc12 | RT-Y181C |  | <0.05 µM |
| CCN1c2ncccc2C(=O)N(C)c2ccc(-c3cc[nH]c3)nc21 | RT-Y181C |  | <1 µM |
| N#Cc1cc(Cl)cc(Oc2cc(Cl)cc(OCC(=O)Nc3ccc(C#N)cc3Cl)c2)c1 |  |  | <20 µM |
| CCc1ccc(-n2c(Br)nnc2SCC(=O)Nc2ccc(S(N)(=O)=O)cc2Cl)c2c1CCCC2 |  |  | <0.05 µM |
| Nc1ccn([C@H]2CC[C@@H](COP(=O)(O)OP(=O)(O)OP(=O)(O)O)O2)c(=O)n1 | RT-1(IIIB) | IIIB | 0.43 µM |
| C=C1c2cc(CCOc3ccc(NS(C)(=O)=O)c4ccccc34)cnc2N(CC)c2ncccc2N1C | RT-Y188L |  | >1 µM |
| CCCCCCNC(=O)c1ccc(NC(=O)CSc2nnc(Br)n2-c2ccc(CC)c3ccccc23)c(Cl)c1 |  |  | <0.05 µM |
| CCN1c2ncccc2C(=O)N(C)c2ccc(-c3c[nH]c(C#N)c3)nc21 | RT-Y188L |  | <1 µM |
| O=C(CSc1nnc(Br)n1-c1ccc(C2CC2)c2ccccc12)Nc1ccc(C(=O)N[C@@H](Cc2ccc(O)cc2)C(=O)O)cc1Cl | RT-Y188L |  | 0.05–0.1 µM |
| N#Cc1cc(Cl)cc(Oc2cc(OCc3[nH]nc4nc(N5CCC(N)C5)ccc34)ccc2Cl)c1 |  |  | <20 µM |
| CCN1c2ncccc2C(=O)N(C)c2ccc(-c3c[nH]c(C(=O)O)c3)nc21 | RT-Y188L |  | >1 µM |
| N#Cc1cc(Cl)cc(Oc2cc(OCc3nc(-c4ccccc4)no3)ccc2Cl)c1 |  |  | <20 µM |
| CCN1c2ncc(CCOc3ccc4cc(CC(=O)O)ccc4c3C)cc2C(=O)N(C)c2cccnc21 | RT-Y188L |  | 0.1–1 µM |
| COC(=O)[C@@H](NC(=O)c1ccc(NC(=O)CSc2nnc(Br)n2-c2ccc(C3CC3)c3ccccc23)c(Cl)c1)C(C)C | RT-Y181C |  | <0.05 µM |
| Cc1occc1C(=S)Nc1ccc(Cl)c(/C=N/OC(C)(C)C)c1 | RT-L100I |  | >50 µM |
| Cc1cc(S(N)(=O)=O)ccc1NC(=O)C(C)Sc1nnc(Br)n1-c1c(C)ccc2ccccc12 | RT-Y181C |  | <0.05 µM |
| CN1C(=O)c2cccnc2N(C2CC2)c2nc(-c3cn[nH]c3)ccc21 |  | WT | <1 µM |

A second listing of 4 rows from above:

smiles,changes,strain,value
CCc1ccc(-n2c(Br)nnc2SCC(=O)Nc2ccc(S(N)(=O)=O)cc2Cl)c2c1CCCC2,,,<0.05 µM
CCc1ccc(-n2c(Br)nnc2SCC(=O)Nc2ccc(C(=O)N[C@H](C(=O)OC)C(C)C)cc2Cl)c2ccccc12,RT-Y181C,,<0.05 µM
COC(=O)[C@@H](NC(=O)c1ccc(NC(=O)CSc2nnc(Br)n2-c2ccc(C3CC3)c3ccccc23)c(Cl)c1)C(C)C,RT-Y181C,,<0.05 µM
CCN1c2ncccc2C(=O)N(C)c2ccc(-c3cnn(C(C)=O)c3)nc21,,WT,<1 µM

Blank or dashed fields: not listed here. Lines come from different laboratories, so protocols vary. ICn: concentration for n% inhibition.